Compound potency records, mixed from different reports. Data source: NIAID ChemDB in PubChem.

All rows: host cell toxicity; cell line: MT-4; measure: CC50

Rows are shuffled and stem from different studies. CCn: concentration that lowers growth or viability of the cells by n%. a–b is a range or a potency band.

structure,result
O=C[C@H](OC(=O)c1cc(O)c(O)c(O)c1Oc1cc2c(c(O)c1O)-c1c3cc(c(O)c1O)Oc1c(cc(O)c(O)c1O)C(=O)O[C@@H](C=O)[C@@H](OC(=O)c1cc(O)c(O)c(O)c1)[C@@H]1OC(=O)c4cc(O)c(O)c(O)c4-c4c(cc(c(O)c4O)Oc4c(cc(O)c(O)c4O)C(=O)O[C@@H](C=O)[C@@H](OC(=O)c4cc(O)c(O)c(O)c4)[C@H](OC3=O)[C@H](O)COC2=O)C(=O)OC[C@H]1O)[C@@H](OC(=O)c1cc(O)c(O)c(O)c1)[C@@H]1OC(=O)c2cc(O)c(O)c(O)c2-c2c(cc(O)c(O)c2O)C(=O)OC[C@H]1O,48.2 µg/mL
Cc1ccc2c(c1)C(=O)N(CCOC(=S)Nc1ccc(C)c(Cl)c1)C2=O,>100 µM
CCn1cc(C(=O)O)c(=O)c2cc(F)c(N3CCN(CN4C(=O)C(=Nc5ccc(S(=O)(=O)Nc6ncnc(OC)c6OC)cc5)c5cc(Cl)ccc54)CC3)cc21,51.2 µg/mL
CN1C(=O)[C@@H](c2cc(Cl)c(O)c(Cl)c2)NC(=O)[C@@H]2NC(=O)[C@H](c3cc(Cl)c(O)c(Cl)c3)NC(=O)[C@@H](NC(=O)C(=O)c3cc(Cl)c(O)c(Cl)c3)Cc3c[nH]c4cc(ccc34)-c3cc2cc(c3O)Oc2ccc(cc2)C[C@H]1C(=O)N[C@@H](C(=O)O)c1ccc(O)cc1,>600 µM
CC1(C)[C@@H](CCO)C[C@H]1n1nnc2c(Cl)nc(N)nc21,190 µg/mL
CNc1ncnc2c1ncn2[C@@H]1O[C@H](CO)C[C@@H]1N=[N+]=[N-],106.9 µg/mL
Cc1cn([C@H]2C=CC[C@@H](CO)O2)c(=O)[nH]c1=O,>100 µM
CCn1cc(C(=O)O)c(=O)c2cc(F)c(N3CCN(CN4C(=O)C(=Nc5ccc(S(=O)(=O)Nc6ncnc(OC)c6OC)cc5)c5cc(Br)ccc54)CC3)cc21,33.9 µg/mL
O=C(O[C@H]1O[C@@H]2COC(=O)c3cc(O)c(O)c(O)c3-c3c(cc(O)c(O)c3O)C(=O)O[C@H]2[C@@H]2OC(=O)c3cc(O)c(O)c(O)c3-c3c(cc(O)c(O)c3O)C(=O)O[C@@H]12)c1cc(O)c(O)c(Oc2c(C(=O)O[C@H]3O[C@@H]4COC(=O)c5cc(O)c(O)c(O)c5-c5c(cc(O)c(O)c5O)C(=O)O[C@H]4[C@@H]4OC(=O)c5cc(O)c(O)c(O)c5-c5c(cc(O)c(O)c5O)C(=O)O[C@@H]34)cc(O)c(O)c2O)c1,41.3 µg/mL
CCn1cc(C(=O)O)c(=O)c2cc(F)c(N3CCN(CN4C(=O)C(=Nc5ccc(S(=O)(=O)Nc6ncccn6)cc5)c5cc(Br)ccc54)CC3)cc21,61.8 µg/mL
COc1ccc(/C=C/C(=O)O[C@@H]2[C@@H](OC(=O)/C=C/c3ccc(OC)cc3)[C@H](O[C@H]3[C@H](OC(=O)/C=C/c4ccc(OC)cc4)[C@@H](OC(=O)/C=C/c4ccc(OC)cc4)[C@H](O[C@H]4CC[C@@]5(C)C(CC[C@]6(C)C5C(=O)C=C5C7C[C@@](C)(C(=O)O)CC[C@]7(C)CC[C@]56C)C4(C)C)O[C@@H]3C(=O)O)O[C@H](C(=O)O)[C@H]2OC(=O)/C=C/c2ccc(OC)cc2)cc1,<100 µg/mL
[N-]=[N+]=N[C@H]1C[C@H](CO)S[C@@H]1n1cnc2c(Cl)ncnc21,>100 µM
O=C1c2ccccc2N(Cc2cccc(Cl)c2)S(=O)(=O)N1Cc1ccccc1,20.6–23.8 µM
O=C(O[C@@H]1[C@H](c2c(O)cc(O)c3c2O[C@H](c2ccc(O)c(O)c2)[C@H](OC(=O)c2cc(O)c(O)c(O)c2)C3)c2c(O)cc(O)c([C@H]3c4c(O)cc(O)cc4O[C@H](c4ccc(O)c(O)c4)[C@@H]3OC(=O)c3cc(O)c(O)c(O)c3)c2O[C@@H]1c1ccc(O)c(O)c1)c1cc(O)c(O)c(O)c1,60.6 µg/mL
COc1ccccc1Cn1c(-c2ccccc2F)nc2c(OC)cccc21,>5 µg/mL
Cc1ccc2c(c1)C(=O)N(CCOC(=S)Nc1ccc(I)cc1)C2=O,>100 µM
CCn1cc(C(=O)O)c(=O)c2cc(F)c(N3CCN(CN4C(=O)/C(=N\c5ncc(Cc6cc(OC)c(OC)c(OC)c6)c(N)n5)c5cc(Br)ccc54)CC3)cc21,54.7 µg/mL
CC1(C)C2CC[C@@]3(C)C4CC[C@@]5(C)CC[C@](C)(C(=O)O)C[C@H]5C4=CC(=O)C3[C@@]2(C)CC[C@@H]1O[C@@H]1O[C@H](C(=O)O)[C@@H](O[C@@H]2O[C@H](C(=O)O)[C@@H](O)[C@H](O)[C@H]2O)[C@H](O)[C@H]1O,1960 µg/mL
CN(C)c1ncnc2c1ncn2[C@@H]1O[C@H](CO)C[C@@H]1N=[N+]=[N-],80.7 µg/mL
CCOC(=O)c1cn(CC(O)CNc2cccc(C)c2)cc1-c1ccccc1,22.2 µM
[N-]=[N+]=N[C@H]1C[C@@H](CO)S[C@H]1n1cnc2c(N)ncnc21,>100 µM
CCc1nc([N+](=O)[O-])c(N2CCN(C(=O)c3ccc(F)cc3)CC2)n1Cc1ccccc1,64.53 µg/mL
Cc1cn([C@H]2S[C@@H](CO)C[C@@H]2N=[N+]=[N-])c(=O)[nH]c1=O,>100 µM
COc1ccc2c(C#N)c3ccccc3c(NC(=S)N[C@H]3C[C@H](n4cc(C)c(=O)[nH]c4=O)O[C@@H]3CO)c2c1OC,5.12 µg/mL
CC(C)(C)NC(=O)c1ccccc1NCC(O)Cn1c(C(=O)NC(C)(C)C)cc2ccccc21,27 µM
Cc1ccc(NC(=S)OC[C@@H](C)N2C(=O)c3ccccc3C2=O)cc1,>100 µM
CC[C@@H]1C=CC[C@H](n2cnc3c(N)ncnc32)O1,>100 µM
O=CC(OC(=O)c1cc(O)c(O)c(O)c1Oc1cc(C(=O)O)cc(O)c1O)C(OC(=O)c1cc(O)c(O)c(O)c1)C1OC(=O)c2cc(O)c(O)c(O)c2-c2c(cc(O)c(O)c2O)C(=O)OCC1O,29.1 µg/mL
O=C1c2ccccc2N(Cc2ccccc2Cl)S(=O)(=O)N1Cc1ccccc1Cl,13–19.8 µM
CC1(C)[C@@H](CCO)C[C@H]1n1cnc2c(N)nc(N)nc21,≥250 µg/mL
O=C(O[C@@H]1[C@@H](c2c(O)cc(O)c3c2O[C@H](c2ccc(O)c(O)c2)[C@H](OC(=O)c2cc(O)c(O)c(O)c2)C3)c2c(O)cc(O)cc2O[C@@H]1c1ccc(O)c(O)c1)c1cc(O)c(O)c(O)c1,52.5 µg/mL
CC(C)(C)OC(=O)N(CCCN(Cc1ccccc1)C(=O)OC(C)(C)C)CCC(=O)N(Cc1ccccc1)CC(O)CN(Cc1ccccc1)C(=O)CCN(CCCN(Cc1ccccc1)C(=O)OC(C)(C)C)C(=O)OC(C)(C)C,>50 µM
CCc1nc([N+](=O)[O-])c(N2CCN(C(=O)c3ccc(Cl)cc3)CC2)n1Cc1ccccc1,31.67 µg/mL
Cc1ccc2c(c1)C(=O)N(CCOC(=S)Nc1ccc(Br)cc1)C2=O,>100 µM
CC(C)(C)NC(=O)c1ccccc1NCC(O)Cn1cc(C(=O)NC(C)(C)C)c(-c2ccccc2)c1,101 µM
O=c1ccn([C@@H]2CC=C[C@@H](CO)O2)c(=O)[nH]1,>100 µM
CC(C)(C)OC(=O)NCCCCCC(=O)N(Cc1ccccc1)CC(O)CN(Cc1ccccc1)C(=O)CCCCCNC(=O)OC(C)(C)C,10 µM
O=S1(=O)N=C(OCc2ccccc2)c2ccccc2N1Cc1ccc(Cl)c(Cl)c1,>250 µM
CC1(C)[C@@H](CCO)C[C@H]1n1cnc2c(N)ncnc21,≥250 µg/mL
O=C(OC1OC2COC(=O)c3cc(O)c(O)c(O)c3-c3c(cc(O)c(O)c3O)C(=O)OC2C(OC(=O)c2cc(O)c(O)c(O)c2)C1OC(=O)c1cc(O)c(O)c(O)c1)c1cc(O)c(O)c(Oc2c(C(=O)OC3OC4COC(=O)c5cc(O)c(O)c(O)c5-c5c(cc(O)c(O)c5O)C(=O)OC4C(OC(=O)c4cc(O)c(O)c(O)c4)C3OC(=O)c3cc(O)c(O)c(O)c3)cc(O)c(O)c2O)c1,37.7 µg/mL
COc1cccc2c1nc(-c1ccccc1F)n2Cc1c(C)cccc1C,>25 µg/mL
CCc1nc([N+](=O)[O-])c(N2CCN(C(=O)c3ccc(OC)cc3)CC2)n1Cc1ccccc1,71.53 µg/mL
[N-]=[N+]=N[C@@H]1C[C@@H](CO)S[C@@H]1n1cnc2c(Cl)ncnc21,>100 µM
O=C1c2ccccc2N(Cc2ccc(Cl)cc2)S(=O)(=O)N1Cc1ccccc1,≥250 µM
COc1cccc2c1nc(-c1ccccc1F)n2Cc1cccc(C)c1,8.5 µg/mL
O=C1c2ccccc2N(Cc2ccccc2)S(=O)(=O)N1Cc1ccccc1Cl,32.5–39.1 µM
CCn1cc(C(=O)O)c(=O)c2cc(F)c(N3CCN(CN4C(=O)C(=Nc5ccc(S(=O)(=O)Nc6ncccn6)cc5)c5cc(Cl)ccc54)CC3)cc21,63.1 µg/mL
CCN(CC)CCOc1ccc(NC(=O)COc2ccccc2C(=O)c2ccc(F)cc2)cc1,>0.862 µM
CC(C)(C)OC(=O)NCCC(=O)N(Cc1ccccc1)CC(O)CN(Cc1ccccc1)C(=O)CCNC(=O)OC(C)(C)C,10 µM
O=C(O)[C@H]1O[C@@H](Oc2cc(O)c3c(=O)cc(-c4ccc(O)cc4)oc3c2)[C@H](O)[C@@H](O)[C@@H]1O,0.32 µg/mL
O=C1c2ccccc2N(Cc2ccccc2)S(=O)(=O)N1Cc1ccccc1,100 µM
CCc1nc([N+](=O)[O-])c(N2CCN(C(=O)CSC)CC2)n1Cc1ccccc1.COc1ccccc1,7.77 µg/mL
CC(C)(C)OC(=O)N(CCCN(Cc1ccccc1)C(=O)OC(C)(C)C)CCC(=O)N(CC(=O)CN(Cc1ccccc1)C(=O)CCN(CCCN(Cc1ccccc1)C(=O)OC(C)(C)C)C(=O)OC(C)(C)C)Cc1ccccc1,50 µM
CCc1nc([N+](=O)[O-])c(N2CCN(C(=O)CCC(N)=O)CC2)n1Cc1ccccc1,≥78.9 µg/mL
CCOC(=O)c1cn(CC(O)CSc2ccccc2)cc1-c1ccccc1,75.3 µM
COc1cccc2c1nc(-c1ccccc1F)n2Cc1cccc(F)c1,>19.1 µg/mL
Cc1cn([C@H]2S[C@H](CO)C[C@@H]2N=[N+]=[N-])c(=O)[nH]c1=O,>100 µM

A second listing of 7 rows from above:

structure | result
O=C1c2ccccc2N(Cc2ccc(Cl)cc2)S(=O)(=O)N1Cc1ccccc1 | ≥250 µM
CC1(C)C2CC[C@@]3(C)C4CC[C@@]5(C)CC[C@](C)(C(=O)O)C[C@H]5C4=CC(=O)C3[C@@]2(C)CC[C@@H]1O[C@@H]1O[C@H](C(=O)O)[C@@H](O[C@@H]2O[C@H](C(=O)O)[C@@H](O)[C@H](O)[C@H]2O)[C@H](O)[C@H]1O | 1960 µg/mL
COc1cccc2c1nc(-c1ccccc1F)n2Cc1cccc(F)c1 | >19.1 µg/mL
Cc1ccc2c(c1)C(=O)N(CCOC(=S)Nc1ccc(I)cc1)C2=O | >100 µM
O=C[C@H](OC(=O)c1cc(O)c(O)c(O)c1Oc1cc2c(c(O)c1O)-c1c3cc(c(O)c1O)Oc1c(cc(O)c(O)c1O)C(=O)O[C@@H](C=O)[C@@H](OC(=O)c1cc(O)c(O)c(O)c1)[C@@H]1OC(=O)c4cc(O)c(O)c(O)c4-c4c(cc(c(O)c4O)Oc4c(cc(O)c(O)c4O)C(=O)O[C@@H](C=O)[C@@H](OC(=O)c4cc(O)c(O)c(O)c4)[C@H](OC3=O)[C@H](O)COC2=O)C(=O)OC[C@H]1O)[C@@H](OC(=O)c1cc(O)c(O)c(O)c1)[C@@H]1OC(=O)c2cc(O)c(O)c(O)c2-c2c(cc(O)c(O)c2O)C(=O)OC[C@H]1O | 48.2 µg/mL
CC(C)(C)OC(=O)N(CCCN(Cc1ccccc1)C(=O)OC(C)(C)C)CCC(=O)N(Cc1ccccc1)CC(O)CN(Cc1ccccc1)C(=O)CCN(CCCN(Cc1ccccc1)C(=O)OC(C)(C)C)C(=O)OC(C)(C)C | >50 µM
CCn1cc(C(=O)O)c(=O)c2cc(F)c(N3CCN(CN4C(=O)C(=Nc5ccc(S(=O)(=O)Nc6ncccn6)cc5)c5cc(Cl)ccc54)CC3)cc21 | 63.1 µg/mL